Biological target: SARS-CoV-2 S protein with the D614G mutation in the Wuhan-Hu-1 strain (SARS-CoV-2) (UniProt P0DTC2)

Substance: longHR2_42 (synthetic, unmodified extended HR2 peptide, residues 1162-1203) (from UniProt P0DTC2 1162-1203)
- IC50 of inhibition of VSV-SARS-CoV-2-D614G infection of Vero+TMPRSS2 cells: 0.9 nM
